A mixed list of measured activities; the numbers were collected in NIAID ChemDB.

Shared fields: growth or infection tests; species: HIV-1

Inhibition is in % at the dose shown (toxicity tests: loss of growth or viability). ECn is the concentration giving n% inhibition of infection, replication or growth. Lines come from different laboratories, so protocols vary. Blank or dashed fields: not listed here. a–b is a range or a potency band. Fold resistance: result on the changed form divided by that on wild type.

structure | strain | measure | tested at | mutations | cells | read by | result
CC(C)C1=C2[C@H]3CC[C@@H]4[C@@]5(C)CC[C@H](OC(=O)[C@H]6C[C@@H](C(=O)O)C6(C)C)C(C)(C)[C@@H]5CC[C@@]4(C)[C@]3(C)CC[C@@]2(CC(=O)N(CCN(C)C)Cc2cccc(Cl)c2)CC1=O | 92HT599 | EC50 | - | - | MT-2 | p24 / ELISA | <1 µM
COc1ccccc1C(=O)Nc1ccc(Cl)c(C(=O)OC(C)C)c1 | UC82-R (RT-Y181C) | fold resistance | - | RT-Y181C | CEM + CEM-SS | cytopathic effect / XTT | 10.9
Cc1cc(S(N)(=O)=O)ccc1NC(=O)COc1ccc(Cl)cc1C(=O)c1cc(F)cc(C#N)c1 | HXB2 | fold resistance | - | RT-V108I | HeLa + HELA CD4+ | β-galactosidase | ~1
S=C(NCCc1ccc(Cl)cc1)Nc1nccs1 | - | inhibition | 100 µg/mL | - | MT-4 | cytopathic effect / XTT | 71–73%
COc1ccc(S(=O)(=O)N(CC(C)C)C[C@@H](O)CCc2ccccc2C(=O)NC(C)(C)C)cc1 | IIIB | EC90 | - | - | CEM | p24 | 1 µM
CC(C)C1=C2[C@H]3CC[C@@H]4[C@@]5(C)CC[C@H](OC(=O)[C@H]6C[C@@H](C(=O)O)C6(C)C)C(C)(C)[C@@H]5CC[C@@]4(C)[C@]3(C)CC[C@@]2(CC(=O)NCC(C)(C)NC(=O)c2ccncc2)CC1=O | 92HT599 | EC50 | - | - | MT-2 | p24 / ELISA | <1 µM
Cc1cc(NS(=O)(=O)CC2CCCCC2)c(C)c(C(OC(C)(C)C)C(=O)O)c1-c1ccc2c(c1)CCCO2 | NL4-3 | fold resistance | - | PI-resistant ARP-11807 (L33F/I47A/L63P/A71V/V82A) | MT-4 | luminescence | 1
Cc1[nH]cnc1CS(=O)(=O)N(CC1CCCC1)C[C@@H](O)CN(CCc1ccccc1)C(=O)c1ccccc1 | IIIB | EC90 | - | - | CEM | p24 | 1 µM
C[C@H]1CN(C(=O)c2ccccc2)CCN1C(=O)C(=O)c1c[nH]c2cc(Cl)c(Cl)cc12 | - | inhibition | 10 µM | - | HeLa + HELA CD4+/CCR5 | luciferase | 89%
Cc1cc(S(N)(=O)=O)ccc1NC(=O)COc1ccc(Cl)cc1C(=O)c1cc(F)cc(F)c1 | HXB2 | fold resistance | - | RT-K103N P225H | HeLa + HELA CD4+ | β-galactosidase | ~1
Nc1nc(NC2CC2)c2ncn([C@H]3C=C[C@@H](CO)C3)c2n1 | XM-T69SSS | EC90 | - | RT-T69SSS L210W T215Y | PBMC | p24 | 34 µM
O=C1Nc2ccc(Cl)cc2[C@@](C#CC2CC2)(C(F)(F)F)N1 | - | fold resistance | - | RT-V108I | - | - | <6.32
Cc1cc(C#N)cc(C(=O)c2cc(Cl)ccc2OCC(=O)Nc2cnc(S(N)(=O)=O)cc2C)c1 | HXB2 | fold resistance | - | RT-L100I | HeLa + HELA CD4+ | β-galactosidase | ~1
CC(C)C1=C2[C@H]3CC[C@@H]4[C@@]5(C)CC[C@H](OC(=O)[C@H]6C[C@@H](C(=O)O)C6(C)C)C(C)(C)[C@@H]5CC[C@@]4(C)[C@]3(C)CC[C@@]2([C@@H](O)CNC(=O)C(C)(CCCCN)NC(=O)c2ccc(Cl)cc2)CC1=O | 92HT599 | EC50 | - | - | MT-2 | p24 / ELISA | <1 µM
CCC(=O)c1ccc(F)c([C@@H]2C[C@@H]2NC(=O)Nc2ccc(C#N)cn2)c1O | LAI | fold resistance | - | NNRTI-resistant (RT K101E/G190A) | TZM-bl | β-galactosidase / luminescence | 2.2
Cc1cc2[nH]cnc2cc1NC(=O)COc1ccc(Cl)cc1C(=O)c1cc(F)cc(C(F)(F)F)c1 | HXB2 | fold resistance | - | RT-V108I Y181C | HeLa + HELA CD4+ | β-galactosidase | ~1
O=C(C(=O)N1CCN(C(=O)c2ccccc2)CC1)c1c[nH]c2c(F)ccc(Br)c12 | - | inhibition | 10 µM | - | HeLa + HELA CD4+/CCR5 | luciferase | 97%
CC(C)=CCOc1cc(NC(=S)c2ccoc2C)ccc1Cl | NL4-3 (RT L74V) | fold resistance | - | RT-L74V | CEM + CEM-SS | cytopathic effect / XTT | 1
Cc1cc2cn[nH]c2cc1NC(=O)COc1ccc(Cl)cc1C(=O)c1cccc(C#N)c1 | HXB2 (RT-K103N G190A) Recombinant | fold resistance | - | RT-K103N G190A | HeLa + HELA CD4+ | β-galactosidase | ~10
CC(C)=CCOc1cc(NC(=S)c2ccsc2C)ccc1Cl | NL4-3 | fold resistance | - | RT-L74V | CEM + CEM-SS | p24 | 1
CC(C)(C)OC(=O)Nc1ccccc1C(=O)N1CCN(C(=O)C(=O)c2c[nH]c3cccc(Cl)c23)CC1 | - | inhibition | 10 µM | - | HeLa + HELA CD4+/CCR5 | luciferase | 51%
O=C1Nc2ccc(F)c(F)c2[C@@](/C=C/C2CC2)(C(F)(F)F)N1 | - | EC90 | - | RT-Y188C | - | - | <0.012 µM
CN1CCn2c(nc(C(=O)NCc3ccc(F)cc3)c(O)c2=O)C(N(C)C(=O)C(=O)N2CCCC2)C1 | - | EC95 | - | - | MT-4 | p24 | <1 µM
C[C@@H]1CN(C(=O)c2ccccc2)CCN1C(=O)C(=O)c1c[nH]c2c([N+](=O)[O-])cccc12 | - | inhibition | 10 µM | - | HeLa + HELA CD4+/CCR5 | luciferase | >98%
COc1ccnc2[nH]cc(C(=O)C(=O)N3C4CCC3CN(C(=O)c3ccccc3)C4)c12 | QH0692 | EC99 | - | - | TZM-bl | luciferase | 133 µM
CN1CCN(C(=S)NCCc2ccccc2)CC1 | - | inhibition | 100 µg/mL | - | MT-4 | cytopathic effect / XTT | 0%
Nc1ccc(C(=O)N2CCN(C(=O)C(=O)c3c[nH]c4cccc(F)c34)CC2)cc1 | - | inhibition | 10 µM | - | HeLa + HELA CD4+/CCR5 | luciferase | >98%
CN1C(=O)CN2CCn3c(nc(C(=O)NCc4ccc(F)cc4)c(O)c3=O)C1C2 | - | EC95 | - | - | MT-4 | p24 | <50 µM
Nc1nc(=O)n([C@H]2C=C[C@@H](CO)O2)cc1F | XM-T69SSS | EC90 | - | RT-T69SSS L210W T215Y | MT-4 | p24 | 8.2 µM
COCCOc1cc(Cl)ccc1C(=O)NC(C)(C)CNC(=O)C[C@@]12CC[C@]3(C)[C@H](CC[C@@H]4[C@@]5(C)CC[C@H](OC(=O)[C@H]6C[C@@H](C(=O)O)C6(C)C)C(C)(C)[C@@H]5CC[C@]43C)C1=C(C(C)C)C(=O)C2 | 92HT599 | EC50 | - | - | MT-2 | p24 / ELISA | <1 µM
CC(C)CN(CC(O)CN1CCN(Cc2cccnc2)CC1C(=O)NC(C)(C)C)S(=O)(=O)c1ccccc1 | IIIB | EC90 | - | - | CEM | p24 | 1 µM
C[C@H]1[C@H](O)[C@@H](C)/C=C/C=C/C=C/C=C/C=C/C=C/C=C/[C@H](O[C@@H]2O[C@H](C)[C@@H](O)[C@H](N)[C@@H]2O)C[C@@H]2O[C@](O)(C[C@@H](O)C[C@@H](O)CC[C@H](O)[C@@H](O)C[C@@H](O)CC(=O)O[C@H]1C)C[C@H](O)[C@H]2C(=O)O | RU132 CLADE G R5 (NSI) | inhibition | 3.8 µM | - | PBMC | p24 / RT activity | 90%
O=C(NCCc1ccccc1)Nc1ccc(F)cc1 | - | inhibition | 10 µg/mL | - | MT-4 | cytopathic effect / XTT | 32–41%
C[C@@H]1CN(C(=O)c2ccccc2)CCN1C(=O)C(=O)c1c[nH]c2cc(Cl)c(Cl)cc12 | - | inhibition | 10 µM | - | HeLa + HELA CD4+/CCR5 | luciferase | 89%
COC(=O)C(=O)c1csc(NC(=O)NCCc2ccccc2)n1 | - | inhibition | 100 µg/mL | - | MT-4 | cytopathic effect / XTT | 0%
Cc1cc(S(N)(=O)=O)ccc1NC(=O)COc1ccc(Cl)cc1C(=O)c1cccc(C#N)c1 | HXB2 | fold resistance | - | RT-K103N P225H | HeLa + HELA CD4+ | β-galactosidase | ~1
Cc1ccc(-c2ccc3c(c2)C=C(C(=O)Nc2ccc(C[N+](C)(C)C4CCOCC4)cc2)CCC3)cc1 | Du151 CLADE C | inhibition | 1 µM | - | PBMC | p24 | 91.4%
O=C(NCCc1ccccc1)Nc1nc2ccccc2s1 | - | inhibition | 100 µg/mL | - | MT-4 | RT activity | 95%
CC(C)[C@H](NC(=O)OCc1ccccn1)C(=O)N[C@@H](Cc1ccccc1)[C@@H](O)C[C@H](Cc1ccccc1)NC(=O)OCc1cccnc1 | NL4-3 | EC95 | - | PR-L10R M46I L63P V82T | MT-4 | p24 | 3 µM
Cc1ccc(C)n1-c1ccc(C(=O)O)c(O)c1 | 93TH051 X4R5 CLADE E | EC90 | - | - | PBMC + MT-2 | p24 | 17.3 µM
O=C(C(=O)N1CCN(C(=O)c2cccc3ccsc23)CC1)c1c[nH]c2cccc(Cl)c12 | - | inhibition | 10 µM | - | HeLa + HELA CD4+/CCR5 | luciferase | >98%
CCc1cc(C#N)cc(C(=O)c2cc(Cl)ccc2OCC(=O)Nc2ccc(S(N)(=O)=O)cc2C)c1 | WTRVA | EC50 | - | - | HeLa + HELA CD4+ | β-galactosidase | <0.01 µM
CC(C)C1=C2[C@H]3CC[C@@H]4[C@@]5(C)CC[C@H](OC(=O)[C@H]6C[C@@H](C(=O)O)C6(C)C)C(C)(C)[C@@H]5CC[C@@]4(C)[C@]3(C)CC[C@@]2(CCNCC(C)(C)NC(=O)c2ccc(Cl)cc2OCCN2CCOCC2)CC1=O | 92HT599 | EC50 | - | - | MT-2 | p24 / ELISA | <1 µM
CN(C)S(=O)(=O)N(C)C1COCCn2c1nc(C(=O)NCc1ccc(F)cc1)c(O)c2=O | - | EC95 | - | - | MT-4 | p24 | <1 µM
CC(C)CN(CCC(O)Cc1ccccc1C(=O)NC(C)(C)C)S(=O)(=O)c1ccccc1 | IIIB | EC90 | - | - | CEM | p24 | 1 µM
CC(C)=CCOc1cc(NC(=S)c2ccsc2C)ccc1Cl | NL4-3 (RT V106I) | fold resistance | - | RT-V106I | CEM + CEM-SS | cytopathic effect / XTT | 13.3
O=C(NCCc1ccccc1)Nc1nc2ccc(Cl)cc2s1 | - | inhibition | 100 µg/mL | - | MT-4 | cytopathic effect / XTT | 49–68%
CC(C)C1=C2[C@H]3CC[C@@H]4[C@@]5(C)CC[C@H](OC(=O)[C@H]6C[C@@H](C(=O)O)C6(C)C)C(C)(C)[C@@H]5CC[C@@]4(C)[C@]3(C)CC[C@@]2([C@@H](O)CNCC(C)(C)NC(=O)c2ccc(N3CCC(O)CC3)cc2)CC1=O | 92HT599 | EC50 | - | - | MT-2 | p24 / ELISA | <1 µM
Cc1ccc(C2CC2)c(-c2ccc3c(c2)CCCO3)c1[C@H](OC(C)(C)C)C(=O)O | NL4-3 | fold resistance | - | INSTI-resistant (IN-G140S Q148H) | MT-4 | luminescence | 1
CC1(C)c2nc(C(=O)NCc3ccc(F)cc3)c(O)c(=O)n2CCN1Cc1cnccn1 | - | EC95 | - | - | MT-4 | p24 | <1 µM
COc1ccnc2[nH]cc(C(=O)C(=O)N3C4CC3CN(C(=O)c3ccccc3)C4)c12 | ZM214 | EC90 | - | - | TZM-bl | luciferase | >250 µM
C[C@@H]1CN(C(=O)c2ccccc2)CCN1C(=O)C(=O)c1c[nH]c2c(F)c(F)c(F)c(F)c12 | - | inhibition | 10 µM | - | HeLa + HELA CD4+/CCR5 | luciferase | >98%
CC(C)C1=C2[C@H]3CC[C@@H]4[C@@]5(C)CC[C@H](OC(=O)[C@H]6C[C@@H](C(=O)O)C6(C)C)C(C)(C)[C@@H]5CC[C@@]4(C)[C@]3(C)CC[C@@]2(CC(=O)N[C@H](C)CNC(=O)c2ccc(Cl)cc2)CC1=O | 92HT599 | EC50 | - | - | MT-2 | p24 / ELISA | <1 µM
CC(=O)N(Cc1ccccc1)C1CN(C)CCn2c1nc(C(=O)NCc1ccc(F)cc1)c(O)c2=O | - | EC95 | - | - | MT-4 | p24 | <1 µM

For reference, 3 entries again:

structure,strain,measure,tested at,mutations,cells,read by,result
CN(C)S(=O)(=O)N(C)C1COCCn2c1nc(C(=O)NCc1ccc(F)cc1)c(O)c2=O,-,EC95,-,-,MT-4,p24,<1 µM
COc1ccnc2[nH]cc(C(=O)C(=O)N3C4CCC3CN(C(=O)c3ccccc3)C4)c12,QH0692,EC99,-,-,TZM-bl,luciferase,133 µM
Cc1cc(S(N)(=O)=O)ccc1NC(=O)COc1ccc(Cl)cc1C(=O)c1cc(F)cc(C#N)c1,HXB2,fold resistance,-,RT-V108I,HeLa + HELA CD4+,β-galactosidase,~1